Compound potency records, mixed from different reports. Data source: NIAID ChemDB in PubChem.

All rows: whole-cell or culture tests; organism: HIV-1; measure: fold resistance

Neighbouring rows are from separate reports. An empty or dashed field is not shown. Fold resistance: result on the changed form divided by that on wild type.

smiles,strain or isolate,cell line,method,mutations,value
CCN1C(=O)N(Cc2ccccc2)S(=O)(=O)c2cscc21,IIIB,CEM,syncytia,RT-V106A,>207
CC(C)=CCn1cc2c(c1)S(=O)(=O)c1cc(Cl)ccc1NC2=O,Clinical isolate,MT-4,cytopathic effect / MTT,RT-Y181C,≥100
CCn1c(=O)c(C)cn([C@@H]2O[C@H](CO[Si](C)(C)C(C)(C)C)C3(OS(=O)(=O)C=C3N)[C@H]2O[Si](C)(C)C(C)(C)C)c1=O,IIIB,CEM,syncytia,RT-C181I,>833
O=C(Nc1nc2ccccc2[nH]1)c1cccc(CN2C(=O)N(CC3CC3)[C@H](Cc3ccccc3)[C@H](O)[C@@H](O)[C@H]2Cc2ccccc2)c1,HXB2,MT-4,p24,PR-V82F,2.1
O=C1N(Cc2ccccc2)c2cscc2S(=O)(=O)N1Cc1ccccc1,IIIB,CEM,syncytia,RT-Y181C,≥5.56
Nc1nc(N)c2ncn([C@H]3CO[C@@H](CO)O3)c2n1,,MT-2,cytopathic effect / XTT,RT-K65R,6
C/C(C#N)=C/c1cc(C)c(Nc2ccnc(Nc3ccc(C#N)cc3)n2)c(C)c1,,MT-4,cytopathic effect / MTT,RT-L100I,3.95
Nc1ccn([C@H]2CO[C@@H](CO)S2)c(=O)n1,HXB2D (RT-M184V),PBMC,p24,RT-M184V,30
O=C(NCc1ccc(F)cc1)c1nc(N2CCCCS2(=O)=O)c2cccnc2c1O,,,p24,INTG-S153Y N155S,11
CC(C)c1c(CO)cn(Cc2ccncc2)c1Sc1ccccc1,,,cytopathic effect / MTT,RT-K103N,<96
Cc1cn([C@@H]2O[C@H](CO[Si](C)(C)C(C)(C)C)C3(OS(=O)(=O)C=C3N)[C@H]2O[Si](C)(C)C(C)(C)C)c(=O)n(C)c1=O,NEV(RT-V106A),CEM,syncytia,RT-V106A,92.5
Nc1nc(=O)n([C@H]2CO[C@@H](CO)S2)cc1F,HXB2D (RT-M184V),PBMC,p24,RT-M184V,0.667
CC(C)=CCN1Cc2cccc3[nH]c(=S)n(c23)C[C@@H]1C,HX(RT-S156A),MT-2,RT activity,RT-S156A,0.692
CC(C)Oc1ccc(Cc2ccccc2)cc1C(=O)CC(=O)C(=O)O,,,,INTG-T66I S153Y,9
Cc1cn([C@H]2C[C@H](N=[N+]=[N-])[C@@H](CO)O2)c(=O)[nH]c1=O,Recombinant,HeLa,luciferase,RT-M41L A62V S68N G112S M184V,0.1
CC(C)(O)c1cccc(CN2C(=O)N(Cc3cccc(C(C)(C)O)c3)[C@H](Cc3ccccc3)[C@H](O)[C@@H](O)[C@H]2Cc2ccccc2)c1,HXB2,MT-2/MT-4 + MT-2,p24,PR-V82F,3.8
Nc1nc(=O)n([C@@H]2CO[C@H](CO)S2)cc1F,HxB2D(RT-D67G),PBMC,p24,RT-D67G,4.64
Cc1cccc(C)c1CNC(=O)[C@H]1N(C(=O)[C@@H](O)C[C@@H](Cc2ccccc2)C(=O)N[C@H]2c3ccccc3C[C@H]2O)CSC1(C)C,,MT-4,p24,PR-V18C,1
Cc1ccccc1Cc1cccc(C(=O)CC(=O)C(=O)O)c1,,,p24,INTG-N155S,6
CC(C)c1c(CO)cn(Cc2ccncc2)c1Sc1cc(Cl)cc(Cl)c1,,C8166,p24,RT-Y181C,<56.7
CC(=O)Oc1ccc(/C=C/C(=O)O[C@@H](C(=O)O)[C@@H](OC(=O)/C=C/c2ccc(OC(C)=O)c(OC(C)=O)c2)C(=O)O)cc1OC(C)=O,NL4-3,MT-4,,AR117-resistant,>9.25
Nc1nc2c(ncn2[C@H]2CO[C@@H](CO)O2)c(=O)[nH]1,,MT-2,cytopathic effect / XTT,RT-K65R Q151M,20.5
CC(C)(C)C(=O)c1sc(C(=O)NCCc2ccccc2)c(O)c1O,,,,INTG-S153 N155S,2
O=c1[nH]cnc2c1ncn2[C@H]1CC[C@@H](CO)O1,,C8166,p24,RT-M41L L74V V106A T215F,5
Cc1ccnc2c1NC(=O)c1cccnc1N2C1CC1,RF,C8166,p24,RT-V106I Y188C,>3330
Nc1ccn([C@@H]2CO[C@H](CO)S2)c(=O)n1,HXB2D (RT-K65R),PBMC,p24,RT-K65R,2.5
CC(C)=CCN1Cc2cccc3[nH]c(=S)n(c23)C[C@@H]1C,IIIB,MT-2,cytopathic effect,RT-R83K L100I,>187.5
CCOCn1c(Sc2ccccc2)c(CC)c(=O)[nH]c1=O,IIIB,CEM,syncytia,RT-Y181C,51.4
Cc1cn([C@H]2C=C[C@@H](CO)O2)c(=O)[nH]c1=O,NL4-3,MAGI (CCR5) + MAGI,β-galactosidase,RT-K103N,0.84
C#CCN1C(=O)N(Cc2ccccc2)S(=O)(=O)c2cscc21,IIIB,CEM,syncytia,RT-Y181C,7.08
C#C[C@@]1(CO)C=C[C@H](n2cc(C)c(=O)[nH]c2=O)O1,HXB2,MAGI (CCR5) + MAGI,β-galactosidase,RT-K65R,0.86
Nc1ccn([C@@H]2CO[C@H](CO)S2)c(=O)n1,HXB2D (M1841I),CBMC,RT activity,RT-M184I,1
Nc1ccn([C@H]2CC[C@@H](CO)O2)c(=O)n1,HX(RT-S156A),MT-2,RT activity,RT-S156A,1.32
Cc1cn([C@H]2C[C@H](N=[N+]=[N-])[C@@H](CO)O2)c(=O)[nH]c1=O,AZT-resistant (RT D67N K70R T215F K219Q),MT-2,p24,RT-D67N K70N T215F K219Q,11.7
CC(C)(C)OC(=O)N[C@@H](Cc1ccccc1)[C@H](O)CNC[C@@H](O)[C@H](Cc1ccc(OCC(=O)N2CCOCC2)cc1)NC(=O)OC(C)(C)C,RF,MT-2,,PR-G48V A71T V82A,9.3
Nc1ccn([C@@H]2CO[C@H](CO)S2)c(=O)n1,RF,C8166,p24,RT-M41L,0.8
Fc1cccc(F)c1Cn1c(-c2c(F)cccc2F)nc2c(Br)cccc21,,MT-4,cytopathic effect / MTT,RT-K103N,20.4
C/C(=C\C#N)c1cc(C)c(Nc2ccnc(Nc3ccc(C#N)cc3)n2)c(C)c1,,MT-4,cytopathic effect / MTT,RT-L100I K103N,25.1
O=c1[nH]cnc2c1ncn2[C@H]1CC[C@@H](CO)O1,HXB2D (RT-L74V),PBMC,p24 / ELISA,RT-L74V,4.03
O=C(NCc1ccc(F)cc1)c1nc(N2CCCCS2(=O)=O)c2cccnc2c1O,,,,INTG-N155S,30
Cn1c2ccccc2c2c1cc(C#N)c(=O)n2-c1ccc([N+](=O)[O-])cc1,NNRTI-resistant,HeLa,luciferase,RT-G190S,1.7
O=P(O)(O)Cc1cc2c(O)c(c1)Sc1cc(CP(=O)(O)O)cc(c1O)Sc1cc(CP(=O)(O)O)cc(c1O)Sc1cc(CP(=O)(O)O)cc(c1O)S2,,TZM-bl + MT-2,luciferase,NNRTI-resistant,0.6
Cc1cn([C@H]2C[C@H](N=[N+]=[N-])[C@@H](CO)O2)c(=O)[nH]c1=O,126 3TC (RT-M184V),MT-4,p24,RT-M184V,0.5
Cc1cn([C@H]2C=C[C@@H](CO)O2)c(=O)[nH]c1=O,Recombinant,HeLa,luciferase,RT-M41L V118I M184V,1.1
C/C(C#N)=C\c1cc(C)c(Nc2ccnc(Nc3ccc(C#N)cc3)n2)c(C)c1,,MT-4,cytopathic effect / MTT,RT-Y188L,3.95
Cc1ccnc2c1NC(=O)c1cccnc1N2C1CC1,4xAZT/L100I(RT-D67N K70R T215Y K219Q L100I),CEM + CEM-SS,cytopathic effect / XTT,RT-D67N K70R L100I T215Y K219Q,1.5
CN1C(=O)N(Cc2ccccc2)S(=O)(=O)c2cscc21,IIIB,CEM,syncytia,RT-Y181C,>141
CCOC(=O)c1c[nH]cc1S(=O)(=O)c1cc(Cl)ccc1N,Clinical isolate,MT-4,cytopathic effect / MTT,RT-Y181C,≥23
CC(=O)Nc1cccc2c1nc(-c1c(F)cccc1F)n2Cc1c(F)cccc1F,,MT-4,cytopathic effect / MTT,RT-K101E,>40
Cc1cn([C@@H]2O[C@H](CO[Si](C)(C)C(C)(C)C)C3(OS(=O)(=O)C=C3N)[C@H]2O[Si](C)(C)C(C)(C)C)c(=O)n(C)c1=O,IIIB,CEM,syncytia,RT-C181I,>600